Among the data in US9096492B2, “Hydrated N-fullerene amino acids, method for producing the latter, and pharmaceutical compositions on the basis thereof” (priority 2011, dated 2015) are Index of protection values, retold here.

This assay deals with A/Swine/1976/31 (H1N1) influenza virus. It is filed as in vivo, mice.

Where two headings read alike, the source gives them in different places.

For the substance “N-fullerene tris(δ-aminocaproic acid) hydrate [Agent 1]”, the Index of protection is recorded as 21.7 (30 mg/kg, Summary dose, n=30); 25.0 (30 mg/kg, virus 1 LD50, n=15); 21.0 (30 mg/kg, virus 10 LD50, n=15); 45.7 (100 mg/kg, Summary dose, n=28); 50.0 (100 mg/kg, virus 1 LD50, n=15); 42.0 (100 mg/kg, virus 10 LD50, n=13). In addition, the Index of protection is, setting by setting: (300 mg/kg, Summary dose, n=28) 55.6; (300 mg/kg, virus 1 LD50, n=14) 59.8; (300 mg/kg, virus 10 LD50, n=14) 53.8.
